Test results as given in CN112625136A (SANYOU BIOPHARMACEUTICALS SHANGHAI CO LTD; SHANGHAI ZJ BIO …, dated 2021).

What was measured:
[1] = target: T1, S蛋白RBD-mFc (Sinobio, 40592-V05H) (2019-nCoV (SARS-CoV-2)); assay: FACS blocking of RBD binding to ACE2-HEK293 cells
T1 construct: domain: RBD; also called Spike-RBD-mFc; Spike RBD-mFc

[2] = target: T1, S蛋白RBD-mFc (Sinobio, 40592-V05H); assay: ELISA as in Example 5.1, Spike-RBD-mFc coated
[3] = target: T1, S蛋白RBD-mFc (Sinobio, 40592-V05H); assay: FACS blocking as in Example 6.2: RBD-mFc on ACE2-HEK293 cells

| Binder | IC50 [1] [nM] | EC50 [2] [nM] | IC50 [3] [nM] |
| --- | --- | --- | --- |
| P14-F8-38 (Fc fusion) EVQLVESGGGLVQPGGSLRLSCAASGFRFGSYTMSWVRQAPGKAPEWVSDINTRGETTRYADSVKGRFTISRDNAKNTLYLQMNSLRAEDTAVYYCAVAASGDTFFGRSDPDYWGQGTLVTVSS[human IgG1 Fc with changes not spelt out] | 0.272 | – | – |
| P14-F8 (Fc fusion, also called P14-F8-Parental; 候选驼源纳米抗体P14-F8) EVQLVESGGGLVQPGGSLRLSCAASGFRFGSYYMSWVRQAPGKAPEWVSDINTRGETTRYSDSVKGRFTIARDNANNTVFLFMNRLKPEDTAVYYCAVAASGDTFEGRSDPDYWGQGTLVTVSS[human IgG1 Fc with changes not spelt out] | – | ~0.09 | ~0.47 |
